Results of single-concentration screens

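Phenotypic screen: M. tuberculosis growth, glucose 7H9 medium, 3 days; the read-out is not stated. Tested at 500 µM. The record gives no direction; compounds that gave an IC50 in retests scored well above the rest, so higher reads as more growth inhibition. Size under these conditions: about 18,000 compounds, about 1,400 of them at 50% or above in at least one test.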

The filed quantity is “Percent Effect” (%). The controls that fix the scale are not given in the record; negative values are as filed. This is part of a subset picked to be rich in strong results.

| # | compound | percent effect |
|---|---|---|
| 1 | `CC(C)(C)OC(=O)N1CCCOC(CN)C1` (stereo not drawn) | 29.3 |
| 2 | `Cc1ccc(CN(C)C(=O)CO)c(C)c1` | 24.63 |
| 3 | `COCc1nn(Cc2ccccc2Cl)c(=O)o1` | 65.69 |
| 4 | `CC[C@@H]1C[C@H]1NC(=O)N1CCC(CS(N)(=O)=O)CC1` | 13.22 |
| 5 | `CC(Nc1ccc(C#N)cn1)c1ccc2c(c1)OCO2` (stereo not drawn) | 76.86 |
| 6 | `Cc1ccc(NS(=O)(=O)N(C)C)c(C)c1` | 46.8 |
| 7 | `NCc1cnn(-c2ccc(F)cc2)c1` | 41.15 |
| 8 | `NCc1ccccc1OCCN1CCOCC1` | 27.37 |
| 9 | `Cc1ccc(C#N)cc1S(=O)(=O)N1CCC[C@@H](N)C1` | -3.461 |
| 10 | `Cc1cccc(CNC(C)(CO)CO)c1C` | 3.347 |
| 11 | `O=C(NCc1ccncc1)NCC1CCN(C2CC2)C1` (stereo not drawn) | 35.26 |
| 12 | `Cc1ncsc1C(=O)N(C)c1ncccc1C#N` | -5.807 |
| 13 | `CSC(C)C(=O)N(CCC(N)=O)Cc1ccccc1` (stereo not drawn) | 17.23 |
| 14 | `CCc1ccc(CCNC(=O)CC2CNCCO2)cc1` (stereo not drawn) | 37.06 |
| 15 | `CO[C@H]1CNCC1NC(=O)Cc1nc(C)sc1C` (stereo partly drawn) | 0.3226 |
| 16 | `CCCc1noc(C(C)Nc2cccc(C(N)=O)c2)n1` (stereo not drawn) | 67.71 |
| 17 | `CN(C)C(=O)CSCC(=O)NCc1ccc(Cl)cc1` | 64.1 |
| 18 | `NCCNS(=O)(=O)c1cccc(OC(F)(F)F)c1` | 41.83 |
| 19 | `NC(=O)C(Sc1nnc[nH]1)c1ccc(Br)cc1` (stereo not drawn) | 50.27 |
| 20 | `CCC(=O)NCCCN1CCCCCC1` | -36.33 |
| 21 | `O=S1(=O)CCCC1CNCc1cccc2cccnc12` (stereo not drawn) | 18.37 |
| 22 | `CN1CCN(C(=O)c2cc3c(F)cccc3s2)CC1` | 62.74 |
| 23 | `CNC(=O)NC(=O)C(C)Nc1cccc(C)c1` (stereo not drawn) | 58.02 |
| 24 | `COc1ncccc1CN(C)C(=O)CNC(C)=O` | 7.481 |
| 25 | `CNc1snc(C)c1C(=O)NCc1cccnc1` | 22.86 |
| 26 | `COc1ccc(CN)c(F)c1` | 1.324 |
| 27 | `N[C@H]1CCN(C(=O)c2cc(F)cc(C(F)(F)F)c2)C1` | 7.513 |
| 28 | `COc1ccc(C(=O)N2CCCCC2C(N)=O)cc1F` (stereo not drawn) | -9.267 |
| 29 | `NC(=O)c1cc(S(=O)(=O)NCCc2ccccc2)cs1` | 63.46 |
| 30 | `CNC(CO)c1cc(OC)ccc1Br` (stereo not drawn) | -4.561 |
| 31 | `c1ccn2c(CC3CCCNC3)nnc2c1` (stereo not drawn) | -5.655 |
| 32 | `COc1ccc(CN2C[C@H](O)[C@@H](N(C)C)C2)c(C)c1C` | 75.06 |
| 33 | `CNC(=O)c1cccc(-c2nc(C(C)(C)OC)no2)c1` | 2.79 |
| 34 | `CC(C)c1nnc(C2CNCCO2)o1` (stereo not drawn) | 13.18 |
| 35 | `O=C(CCC(=O)c1ccc(F)cc1)NCc1ccco1` | 65.06 |
| 36 | `CC(C)(C)OC(=O)N1CCN(c2cc(N)ncn2)CC1` | 0.01482 |
| 37 | `CO[C@@H]1COCC[C@H]1N` | 9.63 |
| 38 | `CC(=O)c1ccc(NC(=O)c2ncoc2C)nc1` | 8.991 |
| 39 | `CCOc1cc(Cl)ccc1CN` | 55.45 |
| 40 | `COC(=O)c1cc(N2C(=O)C=CC2=O)ccc1Cl` | 0.1205 |
| 41 | `CC(=O)Nc1ccc(N2CCCCC2)nc1` | 51.17 |
| 42 | `N[C@H]1C[C@@H](c2cc(NCC3CCOCC3)ncn2)C1` | -4.969 |
| 43 | `CNc1cc(-c2cccc(OC)c2)[nH]n1` | 5.582 |
| 44 | `CNc1ncc(C(=O)N2CCNCC(O)C2)cn1` (stereo not drawn) | -5.663 |
| 45 | `NC(=O)C1(CNCc2cccc(Br)c2)CCOCC1` | 22.87 |
| 46 | `CC(C)CC(O)CNC(=O)c1cc(F)ccc1F` (stereo not drawn) | 72.78 |
| 47 | `CNc1cc(C(N)=O)c2cccc(Cl)c2n1` | 37.94 |
| 48 | `N#Cc1cccc(NCC(=O)NCc2ccco2)c1` | 70.34 |
| 49 | `CNC1CC(=O)N(Cc2ccccc2)C1=O` (stereo not drawn) | 3.068 |
| 50 | `Cc1cccnc1CCO` | 0.4935 |
| 51 | `Cc1ccc(-c2nc(CSc3nnc(N)[nH]3)no2)cc1` | 66.94 |
| 52 | `Fc1ccc(-c2noc(CN3CCSCC3)n2)cc1` | -15.38 |
| 53 | `CN(C)CCOC1CCCNC1` (stereo not drawn) | -6.304 |
| 54 | `O=C(C1CCNCC1)N1CCNCC1` | -3.708 |
| 55 | `COCC(O)CN(C)Cc1cccc(NC(C)=O)c1` (stereo not drawn) | 19.26 |
| 56 | `CNc1cc(C(=O)N2CCCC(NC(C)=O)C2)ccn1` (stereo not drawn) | 9.19 |
| 57 | `Cc1nc(CN(C)C2CCCNCC2)no1` (stereo not drawn) | 18.91 |
| 58 | `CCOc1cc(-c2nnn(C)n2)ccc1OC` | -1.009 |
| 59 | `COc1ccccc1OCC(C)NS(C)(=O)=O` (stereo not drawn) | 16.67 |
| 60 | `CCOC(=O)c1cnccc1N` | -9.997 |
| 61 | `COc1ccc(NC(=O)N2CCCC2)c(C)n1` | -4.274 |
| 62 | `CCOc1ccc(S(=O)(=O)N2CCNC(=O)C2)cc1C` | 3.348 |
| 63 | `Cc1ccc(C(C)C(=O)NCCS(N)(=O)=O)s1` (stereo not drawn) | -5.104 |
| 64 | `CN1CCN(C(=O)COc2ccc(F)cc2F)CC1` | 29.01 |
| 65 | `CC(C)(C)Sc1cc(CN)ccn1` | 5.904 |
| 66 | `CSc1ncc(CNCC2(O)CCCNC2)n1C` (stereo not drawn) | 7.194 |
| 67 | `Cn1ccnc1C(NC(=O)c1cnc(O)cn1)C1CC1` (stereo not drawn) | 4.36 |
| 68 | `Cc1ncc(S(C)(=O)=O)c(NC2CCOCC2)n1` | 9.023 |
| 69 | `CC(O)CN(C)C1CCNCC1` (stereo not drawn) | -2.354 |
| 70 | `CC(C)(C)c1ccccc1S(=O)(=O)NCCN` | -4.504 |
| 71 | `Nc1nc(CCNC(=O)CN2CCOC2=O)cs1` | -2.774 |
| 72 | `Cc1cc(=O)[nH]c(C2(N)CCCCC2)n1` | -6.904 |
| 73 | `CCC(=O)OC(C)C(=O)Nc1ccc2c(c1)OCCO2` (stereo not drawn) | 17.67 |
| 74 | `Cc1ccc(NC(=O)N[C@@H]2CNCC[C@H]2O)cc1` | 17.84 |
| 75 | `CC(c1nc(COc2ccc(F)cc2)no1)S(C)(=O)=O` (stereo not drawn) | 55.73 |
| 76 | `CCn1ncc(N)c1C` | 13.96 |

4 of the entries, repeated:

- NCc1ccccc1OCCN1CCOCC1 | 27.37%
- COc1ccc(C(=O)N2CCCCC2C(N)=O)cc1F (stereo not drawn) | -9.267%
- Cc1ccc(C(C)C(=O)NCCS(N)(=O)=O)s1 (stereo not drawn) | -5.104%
- N[C@H]1CCN(C(=O)c2cc(F)cc(C(F)(F)F)c2)C1 | 7.513%

From ChEMBL document CHEMBL3988442, “University of Dundee, Small-Polar-MMV Screening Library” (2021).